Pooled drug test results. Numbers come from NIAID ChemDB, via PubChem.

Shared fields: tests in culture; organism: HIV-2; read by: MTT; read-out: EC50

An empty or dashed field is not shown. Conditions beyond the fields shown may differ between rows. ECn is the concentration giving n% inhibition of infection, replication or growth.

structure | strain | cells | mutations | value
Cc1cc(C#N)cc(C)c1Oc1nc(Nc2ccc(C#N)cc2)ncc1SCC(=O)Nc1ccc(S(C)(=O)=O)cc1 | ROD | MT-4 |  | >214 µM
CC1=[N+](C)N(c2ccccc2)C(=O)C1Nc1nc(Nc2ccc(C#N)cc2)nc(Oc2cc(=O)n(C)c3ccccc23)n1 | ROD |  |  | >125 µg/mL
Cc1cc(Br)cc(C)c1Oc1ncc(N)c(Nc2ccc(C#N)cc2)n1 | ROD | MT-4 |  | >31 µM
COc1ccc(CCNc2nc(NC(=S)Nc3ccccc3)nc(Oc3cc(=O)oc4ccccc34)n2)cc1OC | ROD | MT-4 |  | >15.45 µg/mL
CCOC(=O)c1c(C)n([C@H]2C[C@@H]2c2ccccc2)c2ccc(O)cc12 | ROD | MT-4 |  | >250 µM
Cn1c(-c2ccc(F)cc2)c(N=Nc2ccc(-c3ccc(F)cc3)cc2)c(N)nc1=O | ROD | MT-4 |  | >66.6 µM
Cc1cc(C)c(Oc2ncc(NC(=O)C(F)(F)F)c(Nc3ccc(C#N)cc3)n2)c(C)c1 | ROD | MT-4 |  | >242 µM
COc1ccc(N(C)C(=O)[C@H](Cc2cc(F)cc(F)c2)NC(=O)CN2CCN(S(=O)(=O)c3ccccc3N)CC2=O)cc1 | ROD | MT-4 |  | 0.14 µM
CCCNc1c(N=Nc2ccc(Cl)cc2)c(N)nc(=O)n1C | ROD | MT-4 |  | >100 µM
Cc1cc(C#N)cc(C)c1Oc1nc(NC2CCN(S(C)(=O)=O)CC2)nc2ccsc12 | ROD | MT-4 |  | >22.21 µM
CCOC(=O)CNc1nc(Nc2ccc(OC)cc2)nc(Oc2cc(=O)oc3ccccc23)n1 | ROD | MT-4 |  | >58.6 µg/mL
Cc1ccc(CN=C2C=C(Cc3ccccc3)NS(=O)(=O)N2)cc1 | ROD | MT-4 |  | >192 µM
COc1ccc(N(C)C(=O)[C@H](Cc2cc(F)cc(F)c2)NC(=O)CN2CCN(S(=O)(=O)c3cccc([N+](=O)[O-])c3)CC2=O)cc1 | ROD | MT-4 |  | 0.17 µM
Cc1cc(C#N)cc(C)c1Oc1nc(Nc2ccc(C#N)cc2)ncc1SCC(=O)N1CC[C@H](NC(=O)OC(C)(C)C)C1 | ROD | MT-4 |  | >24.7 µM
COc1ccc(S(=O)(=O)NC(Cc2ccccc2)c2nnc(Nc3ccc(F)cc3)s2)cc1 | ROD | MT-4 |  | >2.04 µM
COc1cc2c(cc1OC)C1=NOC(c3ccc(Cl)cc3)C1C2 | ROD | MT-4 |  | >1.36 µM
O=C(COc1ccc2ccccc2c1)NCC(=O)NNC(=S)Nc1ccc(Br)cc1 | ROD | MT-4 |  | >31.2 µg/mL
COc1ccc(-c2ccc(N=Nc3c(N)nc(=O)n(C)c3N3CCCCC3)cc2)cc1OC | ROD | MT-4 |  | >18.15 µM
Cc1ccc(S(=O)(=O)Sc2nnc(CNC(=O)COc3ccc4ccccc4c3)n2-c2ccccc2)cc1 | ROD | MT-4 |  | >12.7 µg/mL
COc1c(Cl)cc(C(=CCC[C@@H](C)[C@H]2CCC3C4C(C[C@H](O)[C@@]32C)[C@@]2(C)CC[C@@H](O)C[C@H]2C[C@H]4O)c2cc(Cl)c(OC)c(C(=O)O)c2)cc1C(=O)O | ROD | MT-4 |  | >54.1 µM
COc1cc2c(cc1OC)C1=NOC(c3ccc(N(C)C)cc3)C1C2 | ROD | MT-4 |  | 7 µM
N#Cc1ccc(Nc2nc(Oc3c(Cl)cc(Cl)cc3Cl)ncc2NC(=O)C(F)(F)F)cc1 | ROD | MT-4 |  | 5 µM
N#Cc1ccc(NC2=NS(=O)(=O)NC(Cc3ccccc3)=C2)cc1 | ROD | MT-4 |  | >369 µM
Cc1cc(C#N)cc(C)c1Oc1nc(Nc2ccc(C#N)cc2)ncc1SCC(N)=O | ROD | MT-4 |  | >290 µM
Cc1cc(C#N)cc(C)c1Oc1nc(NC2CCN(S(=O)(=O)c3ccc4oc(=O)ccc4c3)CC2)nc2ccsc12 | ROD | MT-4 |  | >56.92 µM
COC(=O)CCSc1cnc(Nc2ccc(C#N)cc2)nc1Oc1c(C)cc(C#N)cc1C | ROD | MT-4 |  | >34.7 µM
Cc1ccnc2c1NC(=O)c1cccnc1N2C1CC1 | ROD | MT-4 | K103N | >15 µM
CC(C)C(NS(=O)(=O)c1ccc(Br)cc1)c1nnc(Nc2ccc(F)cc2)s1 | ROD | MT-4 |  | >10.08 µM
CCOC(=O)CNc1nc(Nc2ccccc2Cl)nc(Oc2cc(=O)oc3ccccc23)n1 | ROD | MT-4 |  | >67.7 µg/mL
CCOP(=O)(OCC)C(Cc1ccccn1)N[C@@H](Cc1ccccc1)[C@H](O)CN(CC(C)C)S(=O)(=O)c1ccc(OC)cc1 | ROD | MT-4 |  | >13.93 µg/mL
COc1ccc(N(C)C(=O)[C@H](Cc2cc(F)cc(F)c2)NC(=O)CN2CCN(S(=O)(=O)c3cccc(N)c3)CC2=O)cc1 | ROD | MT-4 |  | 0.11 µM
O=C(COc1nsnc1-c1cccc2ccccc12)Nc1ccccc1[N+](=O)[O-] | ROD | MT-4 |  | >66 µM
Cn1c(=O)cc(Oc2nc(Nc3ccc(C#N)cc3)nc(Sc3nnc(-c4ccncc4)o3)n2)c2ccccc21 | ROD |  |  | >68.75 µg/mL
COc1cc2c(cc1OC)C1=NOC(c3cc(OC)c(OC)c(OC)c3)C1C2 | ROD | MT-4 |  | >66.2 µM
CCOC(=O)c1ccc(NC(=O)COc2nsnc2-c2cccc3ccccc23)c(Br)c1 | ROD | MT-4 |  | >98 µM
Cc1cc(C#N)cc(C)c1Oc1nc(Nc2ccc(NS(=O)(=O)c3ccc4oc(=O)ccc4c3)cc2)nc2ccsc12 | ROD | MT-4 |  | >209.8 µM
Cc1cc(C#N)cc(C)c1Oc1nc(Nc2ccc(C#N)cc2)ncc1SCC(=O)NC1CC1 | ROD | MT-4 |  | >30.7 µM
Cc1cc(C=O)cc(C)c1Oc1ncc([N+](=O)[O-])c(Nc2ccc(C#N)cc2)n1 | ROD | MT-4 |  | >37 µM
CC1=C[C@H](Cn2cnc3c(NC4CC4)ncnc32)C[C@@H]1CO | ROD | MT-4 |  | >100 µg/mL
COc1ccc(-n2c(CNC(=O)COc3ccc4ccccc4c3)n[nH]c2=S)cc1 | ROD | MT-4 |  | >46.2 µg/mL
Nn1cc(C(=O)O)c(=O)c2ccc(N3CCN(c4nc5ccccc5s4)CC3)nc21 | ROD | MT-4 |  | 2.57 µM
CCOC(=O)CNc1nc(NC(=O)Nc2ccccc2C)nc(Oc2cc(=O)oc3ccccc23)n1 | ROD | MT-4 |  | >75.53 µg/mL
C=Cn1cc(C(=O)O)c(=O)c2ccc(N3CCN(c4ccccn4)CC3)nc21 | ROD | MT-4 |  | 0.21 µM
COC(=O)CCS(=O)(=O)c1cnc(Nc2ccc(C#N)cc2)nc1Oc1c(C)cc(C#N)cc1C | ROD | MT-4 |  | >13.6 µM
COc1cc2c(cc1OC)C1=NOC(c3ccco3)C1C2 | ROD | MT-4 |  | >10.97 µM
Cn1c(=O)cc(Oc2nc(Nc3ccc(C#N)cc3)nc(Oc3cc(=O)oc4ccccc34)n2)c2ccccc21 | ROD |  |  | >69.2 µg/mL
Cn1cc(C(=O)O)c(=O)c2cc(N)c(N3CCN(c4ccccn4)CC3)nc21 | ROD | MT-4 |  | 2.57 µM
O=S1(=O)N=C(Nc2ccc(Cl)c(F)c2)C=C(Cc2ccc3ccccc3c2)N1 | ROD | MT-4 |  | >152 µM
Cc1cn([C@H]2C[C@H](N=[N+]=[N-])[C@@H](CO)O2)c(=O)[nH]c1=O | ROD | MT-4 |  | 0.021 µM
CC(=O)Nc1ccc(S(=O)(=O)Nc2ccc(Nc3nc(Oc4c(C)cc(C#N)cc4C)c4sccc4n3)cc2)cc1 | ROD | MT-4 |  | >12.7 µM
O=c1ccn(C23C=C[C@@H](CO)[C@@H]2C3)c(=O)[nH]1 | ROD | MT-4 |  | >100 µg/mL
Clc1ccc(Cn2cc(COc3nsnc3-c3cccc4ccccc34)nn2)cc1 | ROD | MT-4 |  | >115 µM
Cc1cc(C(C)(O)c2ccc(F)cc2)nc(Nc2ccc(C#N)cc2)n1 | ROD | MT-4 |  | >61.5 µM
COC(=O)c1ccc(NC(=O)COc2nsnc2-c2cccc3ccccc23)c(Br)c1 | ROD | MT-4 |  | >100 µM
CCOP(=O)(OCC)C(Cc1ccccc1)N[C@@H](Cc1ccccc1)[C@H](O)CN(CC(C)C)S(=O)(=O)c1ccc(OC)cc1 | ROD | MT-4 |  | >13.25 µg/mL
Cc1ccc(S(=O)(=O)NC(Cc2ccccc2)c2nnc(Nc3ccc(Br)cc3)s2)cc1 | ROD | MT-4 |  | >1.58 µM
Cc1cc(C#N)cc(C)c1Oc1nc(Nc2ccc(C#N)cc2)ncc1SCC(=O)NCCN1CCOCC1 | ROD | MT-4 |  | >21.9 µM
CC(=O)c1ccc(S(=O)(=O)N2CCC(Nc3nc(Oc4c(C)cc(C#N)cc4C)c4sccc4n3)CC2)cc1 | ROD | MT-4 |  | >21.98 µM
Cc1ccc(S(=O)(=O)NC(C)c2nnc(Nc3ccc(Br)cc3)s2)cc1 | ROD | MT-4 |  | >8.09 µM
CC(C)CCC[C@@H](C)[C@H]1CC[C@H]2[C@@H]3CC[C@H]4C[C@@H](CCC=C(c5cc(Cl)c(O)c(C(=O)O)c5)c5cc(Cl)c(O)c(C(=O)O)c5)CC[C@]4(C)[C@H]3CC[C@]12C | ROD | MT-4 |  | 4 µM
COc1ccc(N(C)C(=O)[C@H](Cc2cc(F)cc(F)c2)NC(=O)CN2CCN(S(=O)(=O)c3cccc(Cl)c3)CC2=O)cc1 | ROD | MT-4 |  | 0.44 µM
O=S1(=O)N=C(Nc2ccc(F)c(F)c2)C=C(Cc2ccc3ccccc3c2)N1 | ROD | MT-4 |  | >156 µM
Cc1ccc(NC(=O)COc2nsnc2-c2cccc3ccccc23)c([N+](=O)[O-])c1 | ROD | MT-4 |  | >29 µM
CC(NS(=O)(=O)c1ccc(Cl)cc1)c1nnc(Nc2ccc(Br)cc2)s1 | ROD | MT-4 |  | >4.09 µM
COc1ccc(N(C)C(=O)[C@H](Cc2cc(F)cc(F)c2)NC(=O)CN2CCN(S(=O)(=O)c3ccccc3[N+](=O)[O-])CC2=O)cc1 | ROD | MT-4 |  | 1.19 µM
CCOC(=O)c1c(CSc2ccccc2)n(C)c2cc(Br)c(O)c(CN(C)C)c12 | ROD | MT-4 |  | >8.4 µM
Cn1c(=O)cc(Oc2nc(Nc3ccc(C#N)cc3)nc(Nc3cnccn3)n2)c2ccccc21 | ROD |  |  | >83.58 µg/mL
CCOC(=O)CNc1nc(NC(=O)Nc2ccc(C)cc2)nc(Oc2cc(=O)oc3ccccc23)n1 | ROD | MT-4 |  | >11.27 µg/mL
Cc1cc(C#N)cc(C)c1Oc1nc(Nc2ccc(C#N)cc2)ncc1SCC(=O)NC1CCN(C(=O)OC(C)(C)C)CC1 | ROD | MT-4 |  | >204 µM
COc1cc2c(cc1OC)C1=NOC(c3cccc(N)c3)C1C2 | ROD | MT-4 |  | >13.83 µM
CC(C)C(NS(=O)(=O)c1ccc(Br)cc1)c1nnc(Nc2ccc(Br)cc2)s1 | ROD | MT-4 |  | >2.31 µM
CCOC(=O)CNc1nc(NC(=O)Nc2ccc(F)cc2)nc(Oc2cc(=O)oc3ccccc23)n1 | ROD | MT-4 |  | >125 µg/mL
Cn1c(N2CCCCC2)c(N=Nc2ccc(Cl)cc2)c(N)nc1=O | ROD | MT-4 |  | >20.11 µM
COc1cc2c(cc1OC)C1=NOC(c3c(Cl)cccc3Cl)C1C2 | ROD | MT-4 |  | >53.2 µM
Fc1ccccc1Cn1cc(COc2nsnc2-c2cccc3ccccc23)nn1 | ROD | MT-4 |  | >79 µM
Cc1cc(C#N)cc(C)c1Oc1nc(Nc2ccc(C#N)cc2)ncc1SCC(=O)NCC1CC1 | ROD | MT-4 |  | 20.7 µM
CCNc1c(N=Nc2ccc(Cl)cc2)c(N)nc(=O)n1C | ROD | MT-4 |  | >36.72 µM
COc1ccc(CSc2nc(C(=O)c3cccc(F)c3)c(C)c(=O)[nH]2)cc1 |  | MT-4 |  | >325 µM
Cc1ccc(NC(=S)NNC(=O)CNC(=O)COc2ccc3ccccc3c2)cc1 | ROD | MT-4 |  | >91.4 µg/mL
Cc1cc(C#N)cc(C)c1Oc1nc(Nc2ccc(NS(C)(=O)=O)cc2)nc2ccsc12 | ROD | MT-4 |  | >268.4 µM
C=Cn1cc(C(=O)O)c(=O)c2ccc(N3CCN(c4cccc(C(F)(F)F)c4)CC3)nc21 | ROD | MT-4 |  | 0.78 µM
COc1ccc(CSc2nc(C(=O)c3ccc(F)cc3)c(C)c(=O)[nH]2)cc1 |  | MT-4 |  | >225 µM
Cc1ccc2nc(Nc3nc(Nc4ccc(C#N)cc4)nc(Oc4cc(=O)n(C)c5ccccc45)n3)sc2c1 | ROD |  |  | >3.88 µg/mL
Cc1cc(C#N)cc(C)c1Oc1ncc(N)c(Nc2ccc(C#N)cc2)n1 | ROD | MT-4 |  | >35.1 µM

The last 7 rows once more:

structure	strain	cells	mutations	value
COc1ccc(CSc2nc(C(=O)c3cccc(F)c3)c(C)c(=O)[nH]2)cc1		MT-4		>325 µM
Cc1ccc(NC(=S)NNC(=O)CNC(=O)COc2ccc3ccccc3c2)cc1	ROD	MT-4		>91.4 µg/mL
Cc1cc(C#N)cc(C)c1Oc1nc(Nc2ccc(NS(C)(=O)=O)cc2)nc2ccsc12	ROD	MT-4		>268.4 µM
C=Cn1cc(C(=O)O)c(=O)c2ccc(N3CCN(c4cccc(C(F)(F)F)c4)CC3)nc21	ROD	MT-4		0.78 µM
COc1ccc(CSc2nc(C(=O)c3ccc(F)cc3)c(C)c(=O)[nH]2)cc1		MT-4		>225 µM
Cc1ccc2nc(Nc3nc(Nc4ccc(C#N)cc4)nc(Oc4cc(=O)n(C)c5ccccc45)n3)sc2c1	ROD			>3.88 µg/mL
Cc1cc(C#N)cc(C)c1Oc1ncc(N)c(Nc2ccc(C#N)cc2)n1	ROD	MT-4		>35.1 µM